Measured values from several laboratories, pooled; numbers as filed in NIAID ChemDB.

Shared fields: whole-cell or culture tests

Zone: diameter of growth inhibition. Conditions beyond the fields shown may differ between rows. An empty or dashed field is not shown. Percent inhibition refers to the dose given; in toxicity tests it is the harm to the cells. A number after MIC or MFC names an inhibition level or a share of isolates.

smiles | dose | read by | strain or isolate | species | read-out | result
Nc1ncccc1-c1cc(Cc2ccc(COc3ccccn3)cc2)no1 | - | broth dilution | - | Candida lusitaniae | MIC | 0.06 µg/mL
CC(C)(O)c1cn(-c2cccc3ccccc23)nn1 | 2048 µg/mL | broth dilution | URM 4984 | Candida parapsilosis | inhibition | 0%
O/N=C\c1ccc(O)cc1 | - | broth dilution | - | Candida famata | MFC | >7290 µM
C[C@@H](N1CCN(Cc2cn(-c3ccc(F)cc3)c3ccccc23)CC1)[C@](O)(Cn1cncn1)c1ccc(F)cc1F | - | resazurin | ATCC 64548 | Candida albicans | MIC80 | 0.125 µg/mL
O=[N+]([O-])c1cccc(/C=N\O)c1 | - | - | - | Candida lipolytica | MIC | 3010 µM
C[C@@H](N1CCN(Cc2cn(Cc3ccc(F)cc3F)c3c(F)cccc23)CC1)[C@](O)(Cn1cncn1)c1ccc(F)cc1F | - | resazurin | ATCC 90028 | Candida albicans | MIC80 | 0.125 µg/mL
O=C(CCn1ccnc1)c1cccc(C(O)c2ccc(Br)cc2)c1 | - | broth dilution | RTCC 1019 | Candida kefyr | MIC | 1 µg/mL
C[C@@H](N1CCN(Cc2cn(Cc3ccc(F)cc3F)c3ccccc23)CC1)[C@](O)(Cn1cncn1)c1ccc(F)cc1F | - | resazurin | ATCC MYA-1003 | Candida albicans | MIC80 | 8 µg/mL
CC(C)(O)c1cn(-c2ccc([N+](=O)[O-])cc2)nn1 | 2048 µg/mL | broth dilution | ATCC 22019 | Candida parapsilosis | inhibition | 0%
O=C(NN=Cc1ccc(O)cc1)c1snnc1C(F)(F)F | 100 µg/mL | agar diffusion / agar | NCIM 3462 | Candida rugosa | zone | 0 mm
CC(C)(O)c1cn(-c2ccccc2)nn1 | 2048 µg/mL | broth dilution | URM 4262 | Candida tropicalis | inhibition | 0%
OC(CCn1ccnc1)c1cccc(C(O)c2ccc(Cl)c(Cl)c2)c1 | - | broth dilution | RTCC 1019 | Candida kefyr | MIC | 4 µg/mL
C[C@@H](N1CCN(Cc2cn(Cc3cccc(C(F)(F)F)c3)c3c(F)cccc23)CC1)[C@](O)(Cn1cncn1)c1ccc(F)cc1F | - | resazurin | ATCC 90028 | Candida albicans | MIC80 | 0.125 µg/mL
CC(C)=NNC(=O)c1snnc1C(F)(F)F | 100 µg/mL | agar diffusion / agar | NCIM 3462 | Candida rugosa | zone | 0 mm
O/N=C\c1cccs1 | - | - | - | Candida lipolytica | MIC100 | 3930 µM
O=C(NN=C1CCCCC1)c1snnc1C(F)(F)F | 100 µg/mL | agar diffusion / agar | NCIM 3462 | Candida rugosa | zone | 0 mm
O=C(CCn1ccnc1)c1ccc(-c2ccccc2)cc1 | - | broth dilution | RTCC1248 | Candida guilliermondii | MIC | 1 µg/mL
CC(C)N=C(N)c1ccc2nc(-c3ccc4c(c3)Cc3cc(-c5nc6ccc(C(N)=NC(C)C)cc6[nH]5)ccc3-4)[nH]c2c1 | - | - | Isolate CA1548 | Candida albicans | MFC | 1.56 µg/mL
CC(=NNC(=O)c1snnc1C(F)(F)F)c1ccc([N+](=O)[O-])cc1 | 150 µg/mL | agar diffusion / agar | NCIM 3462 | Candida rugosa | zone | 0 mm
C=CCc1ccc(O)c(OC)c1 | - | turbidity | 105 | Candida tropicalis | MIC90 | 475 µg/mL
C[C@@H](N1CCN(Cc2cn(Cc3ccc(C(F)(F)F)cc3)c3c(F)cccc23)CC1)[C@](O)(Cn1cncn1)c1ccc(F)cc1F | - | resazurin | ATCC 36082 | Candida albicans | MIC80 | 0.125 µg/mL
COc1ccc(/C=N/O)cc1 | - | - | - | Candida famata | MIC | 6620 µM
CC(C)(O)c1cn(-c2ccc3ccccc3c2)nn1 | 2048 µg/mL | broth dilution | URM 4608 | Candida parapsilosis | inhibition | 0%
Cc1ccc(C(O)c2cccc(C(=O)CCn3ccnc3)c2)cc1 | - | broth dilution | RTCC1248 | Candida guilliermondii | MIC | 64 µg/mL
C[C@@H](N1CCN(Cc2cn(Cc3ccc(Cl)cc3Cl)c3c(F)cccc23)CC1)[C@](O)(Cn1cncn1)c1ccc(F)cc1F | - | resazurin | ATCC 36082 | Candida albicans | MIC80 | 0.125 µg/mL
O=[N+]([O-])c1ccc(/C=N\O)cc1 | - | - | - | Candida lipolytica | MIC | 3010 µM
C[C@@H](N1CCN(Cc2cn(Cc3ccc(Cl)cc3Cl)c3c(Cl)cccc23)CC1)[C@](O)(Cn1cncn1)c1ccc(F)cc1F | - | resazurin | ATCC 64548 | Candida albicans | MIC80 | 0.125 µg/mL
CC(=NNC(=O)c1snnc1C(F)(F)F)c1ccccn1 | 100 µg/mL | agar diffusion / agar | NCIM 3462 | Candida rugosa | zone | 0 mm
O/N=C\c1ccccc1 | - | - | - | Candida lipolytica | MIC | 4130 µM
C[C@@H](N1CCN(Cc2cn(Cc3ccc(Cl)cc3)c3c(Cl)cccc23)CC1)[C@](O)(Cn1cncn1)c1ccc(F)cc1F | - | resazurin | ATCC 64548 | Candida albicans | MIC80 | 0.125 µg/mL
O=C(CCn1ccnc1)c1cccc(C(O)c2ccc(Cl)c(Cl)c2)c1 | - | broth dilution | RTCC 1377 | Candida guilliermondii | MIC | 16 µg/mL
O=C1S/C(=C\c2ccoc2)C(=O)N1CC(O)(Cn1nccn1)c1ccc(F)cc1F | - | - | Fluconazole-resistant 805 | Candida colliculosa | MIC80 | 37 µg/mL
Cc1ccc(C(O)c2cccc(C(O)CCn3ccnc3)c2)cc1 | - | broth dilution | RTCC 1074 | Candida kefyr | MIC | >64 µg/mL
C[C@@H](c1ncncc1F)[C@](O)(Cn1cncn1)c1ccc(F)cc1F | - | broth dilution | Fluconazole-resistant | Candida spp. | MIC50 | >4 µg/mL

The last 3 rows once more:

smiles | dose | read by | strain or isolate | species | read-out | result
O=C1S/C(=C\c2ccoc2)C(=O)N1CC(O)(Cn1nccn1)c1ccc(F)cc1F | - | - | Fluconazole-resistant 805 | Candida colliculosa | MIC80 | 37 µg/mL
Cc1ccc(C(O)c2cccc(C(O)CCn3ccnc3)c2)cc1 | - | broth dilution | RTCC 1074 | Candida kefyr | MIC | >64 µg/mL
C[C@@H](c1ncncc1F)[C@](O)(Cn1cncn1)c1ccc(F)cc1F | - | broth dilution | Fluconazole-resistant | Candida spp. | MIC50 | >4 µg/mL